Results of unrelated studies side by side (data: NIAID ChemDB).

Shared fields: target-level tests; organism: HIV-1; target: Reverse transcriptase; method: nucleotide incorporation / radiometric; endpoint: IC50

Lines come from different laboratories, so protocols vary. ICn is the concentration giving n% inhibition. Two numbers with a dash give a range or band. Blank or dashed fields: not listed here.

| structure | mutations | strain | result |
|---|---|---|---|
| CCN1c2ncccc2C(=O)N(C)c2ccc(-c3cn[nH]c3C)nc21 | RT-Y181C | - | <1 µM |
| Cc1cc(C2CC2)c2ccccc2c1-n1c(Br)nnc1SCC(=O)Nc1ccc(S(N)(=O)=O)cc1Cl | RT-Y188L | - | 0.05–0.1 µM |
| CCN1c2ncccc2C(=O)N(C)c2ccc(-c3c[nH]c4ccccc34)nc21 | RT-Y181C | - | <1 µM |
| CCN1c2ncc(CCOc3ccc(CC(=O)O)c4c3CCCC4)cc2C(=O)N(C)c2ccc(F)nc21 | RT-Y188L | - | >1 µM |
| Cc1ccc(-n2c(SCC(=O)Nc3ccc(S(=O)(=O)NC(C(=O)O)C(C)C)cc3Cl)nnc2C(F)F)c2c1CCCC2 | RT-Y188L | - | >0.1 µM |
| Cc1cc(C)cc(S(=O)(=O)c2c(C(=O)NCCO)[nH]c3ccc(Cl)cc23)c1 | RT-K103N | - | 1.9 µM |
| CCN1c2ncc(CCOc3ccc(C(=O)O)c4c3CCN(C(=O)OC(C)(C)C)C4)cc2C(=O)N(C)c2cccnc21 | RT-V106A | - | >1 µM |
| CCN1c2ncccc2C(=O)N(C)c2ccc(-c3cccn3C)nc21 | - | WT | <1 µM |
| CCc1ccc(-n2c(Br)nnc2SCC(=O)Nc2ccc(C(=O)NCCN(C)C)cc2Cl)c2ccccc12 | - | - | <0.05 µM |
| CCN1c2ncc(CCOc3ccc(C(=O)O)c4c3CCCC4)cc2C(=O)N(C)c2ccc(C)nc21 | RT-K103N Y181C | - | 0.1–1 µM |
| CCCN1c2ncccc2C(=O)N(C)c2ccc(-c3cn[nH]c3)nc21 | - | WT | <1 µM |
| Cc1cc(S(N)(=O)=O)ccc1NC(=O)CSc1nnc(Br)n1-c1ccc2c3c(cccc13)CC2 | RT-Y181C | - | <0.05 µM |
| CCN1c2ncc(CCOc3ccc(CC(C)C(=O)O)c4ccccc34)cc2C(=O)Nc2c(C)ccnc21 | RT-Y188L | - | >1 µM |
| CCN1c2ncccc2C(=O)N(C)c2ccc(-c3cnn(CC)c3)nc21 | RT-Y181C | - | <1 µM |
| Cc1cc(C)cc(S(=O)(=O)c2c(C(=O)NC(C)C(N)=O)[nH]c3ccc(Cl)cc23)c1 | - | WT | 0.003 µM |
| Cc1cc(C)c2ccccc2c1-n1c(SCC(=O)Nc2ccc(S(N)(=O)=O)cc2Cl)nnc1C(F)F | RT-Y181C | - | <0.05 µM |
| CN1C(=O)c2cccnc2N(C)c2nc(-c3ccc[nH]3)ccc21 | - | WT | <1 µM |
| O=C(CSc1nnc(Br)n1-c1c(Cl)cc(C2CCC2)c2ccccc12)Nc1ccc(C(=O)O)cc1Cl | RT-Y188L | - | 0.05–0.1 µM |
| NC(=O)c1[nH]c2ccc(Cl)cc2c1S(=O)(=O)c1ccccc1 | RT-L100I | - | 0.1 µM |
| CCc1ccc(-n2c(Br)nnc2SCC(=O)Nc2ccc(C(=O)N3CCCCC3CO)cc2Cl)c2ccccc12 | - | - | <0.05 µM |
| CCN1c2ncccc2C(=O)N(C)c2ccc(-c3cccn3C(C)=O)nc21 | - | WT | <1 µM |

The last 2 rows once more:

structure,mutations,strain,result
CCc1ccc(-n2c(Br)nnc2SCC(=O)Nc2ccc(C(=O)N3CCCCC3CO)cc2Cl)c2ccccc12,-,-,<0.05 µM
CCN1c2ncccc2C(=O)N(C)c2ccc(-c3cccn3C(C)=O)nc21,-,WT,<1 µM